Data published in article PMC10593804.

Target: StrepHP1021 (Helicobacter pylori) (UniProt O25665)
Assay: EMSA
Conditions: recombinant protein, protein details: N-terminal Strep, label: 5'-FAM (primer P33), probe letters rebuilt from the primers and the genome

“GGAGTAAGAATAGCTTCGAATCGAAAGCGTCTCTAAAGAAAAAGAAACGCATTCCCCCACTTTTAAGGTAGAAACCACTCAATTAGATGTAAAAATCCCAAATTTCAAGCAAAAAAAGGTTAAAAAGGATACAATAAATACAAAAAATGAAATTTAAATAAATGGGAATTTAATGAGAATTTTTTTTGTTATTATGGGACTTGTGTTTTTTGGTTGCACCAGTAAGGTGCATGAGATGAAAAAAAGCCCTTGCACCTTGTATGAAAACAGGTTAAATCTCGCATGAGGATCCCG (double strand) [pcomB8]”: binds (affinity comparable to oriC2).
“GGAGTAAGAATAGCTTCGAATCTATATATTTATAGCCTTAATCGTAAATGCAACAGAAATTTTCTAGTCTAAAGTCGCACCCTTTGTGCAAAAATCGTTTTACAAGAAGAAAGGAAAAAAATGGAAATACAACAAACACACCGCAAAATCAATCGCCCTCTGGTTTCTCTTGCTTTAGTAGGAGCGTTAGTCAGCATCACACCGCAACAAAGTCATGCCGCCTTTTTCACAACCGTGATCATTCCAGCCATTGTTGGGGGGATCGCTACAGGCGCTGCTGTAGGAACGGTCTCAGGGCTTCTTAGCTGGGGGCTCAAACAAGCCG (double strand) [pvacA]”: binds.

For at least one entry, the source does not settle the construct or the ends of the probe.
